From patent publication US20110045103A1, “METHODS FOR TREATING AIDS” (priority 2009, published 2011)
No dose or concentration is given here for some results.

Tested on: human immunodeficiency virus (HIV) Type I, strain HTLV-IIIB
Test: Neutralization control: cytotoxicity control dilutions challenged with low titer stock virus
Format: cell-based, HIV Type 1
Details: low titer stock virus challenge, MT-2 cells

For Cl.N [Ammonium Chloride, ammonium chloride], the “Neutralization control: test substance neutralized at a TCID50 of” value was “of ≦1.5 Log10” and the “Neutralization control: test substance neutralized at a TCID50 of” value (listed as test substance) was ≤ 1.5 Log10.
